Measured values reported in US9023808B2.

Amino acid sequences for entries named in this document (tags omitted). Residues count along the entry.
UniProt P27958, 1027-1657 limits assumed: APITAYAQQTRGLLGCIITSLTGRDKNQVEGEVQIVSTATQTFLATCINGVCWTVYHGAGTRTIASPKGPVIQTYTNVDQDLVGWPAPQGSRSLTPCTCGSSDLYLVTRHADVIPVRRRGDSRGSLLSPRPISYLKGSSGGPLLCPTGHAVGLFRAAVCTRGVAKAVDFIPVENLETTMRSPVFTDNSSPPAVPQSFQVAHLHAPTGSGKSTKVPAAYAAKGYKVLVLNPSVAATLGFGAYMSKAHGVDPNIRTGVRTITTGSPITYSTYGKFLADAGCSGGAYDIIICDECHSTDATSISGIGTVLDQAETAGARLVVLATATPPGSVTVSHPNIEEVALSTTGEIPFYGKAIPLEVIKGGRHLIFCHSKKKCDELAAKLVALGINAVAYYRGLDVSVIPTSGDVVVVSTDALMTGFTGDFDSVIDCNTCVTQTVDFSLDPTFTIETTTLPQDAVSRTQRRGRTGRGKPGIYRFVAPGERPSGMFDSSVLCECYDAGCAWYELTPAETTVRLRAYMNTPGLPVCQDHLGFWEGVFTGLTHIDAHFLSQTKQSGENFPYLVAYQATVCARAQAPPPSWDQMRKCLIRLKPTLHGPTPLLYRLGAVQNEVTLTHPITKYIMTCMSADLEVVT

Columns and labels:
[1] = tested on: HCV replicons (NS3-NS5B regions of HCV type 1b) in Huh-7 luc/neo (Huh-Luc) cells; assay: Replicon assay (HCV RNA replication, luciferase readout); details: read-out: EC50 (μM) Replicon assay, incubation of three days, luciferase activity
[2] = biological target: HCV NS3/4A protease complexes (full-length hepatitis C NS3 protease enzyme with NS4A cofactor) (Hepatitis C virus genotype 1a, UniProt P27958); assay: Inhibition assay (enzymatic assay, depsipeptide substrate hydrolysis); details: read-out: Ki (nM) Enzymatic assay; enzyme 1 nM, 25 μM NS4A cofactor, 0.5 μM substrate, 30° C., competitive inhibition model, Km 0.15 μM

CN1CCCC/C=C\[C@@H]2C[C@@]2(C(=O)NS(=O)(=O)C2CC2)NC(=O)[C@@H]2C[C@@H](OC(=O)N3CCOc4ccccc43)C[C@H]2C1=O
EC50 [1]: > 10 µM
Ki [2]: 12 nM

CN1CCCC/C=C\[C@@H]2C[C@@]2(C(=O)NS(=O)(=O)C2CC2)NC(=O)[C@@H]2C[C@@H](OC(=O)N3Cc4ccccc4C3)C[C@H]2C1=O
EC50 [1]: 0.809 µM
Ki [2]: 5.1 nM

CN1CCCC/C=C\[C@@H]2C[C@@]2(C(=O)NS(=O)(=O)C2CC2)NC(=O)[C@@H]2C[C@@H](OC(=O)N3CCc4ccccc4C3)C[C@H]2C1=O
EC50 [1]: > 10 µM
Ki [2]: 24 nM

CN1CCCC/C=C\[C@@H]2C[C@@]2(C(=O)NS(=O)(=O)C2CC2)NC(=O)[C@@H]2C[C@@H](OC(=O)N3CCCc4ccccc43)C[C@H]2C1=O
EC50 [1]: > 10 µM
Ki [2]: 62 nM
